# Percent effect of library compounds

Measurements from “University of Dundee, Small-Polar-MMV Screening Library” (2021), ChEMBL document CHEMBL3988442.

Values are the deposited “Percent Effect”, in %. The record does not define 0% and 100%; most values in the screen are far below 50% and negative numbers occur (in some assays of this library far below -100). Many other results are left out here, so strong results are more common than in the screen. A dash means the value is not listed here; it may have been measured.

Mtb glucose medium: 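Whole-cell growth test on Mycobacterium tuberculosis, read after 3 days in glucose-containing 7H9 medium; the read-out is not stated. Concentration: 500 µM. Direction is inferred from retests: higher values go with more growth inhibition. About 18,000 compounds were tested under these conditions; 7.9% (about 1,400) showed 50% or more at least once.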
Mtb cholesterol medium: 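Growth of Mycobacterium tuberculosis over 4 days (cholesterol / DPPC medium with tyloxapol); the read-out is not stated. Tested at 500 µM. The record gives no direction; compounds that gave an IC50 in retests scored well above the rest, so higher reads as more growth inhibition. Of about 18,000 compounds tested this way, about 900 (5%) reached 50% or more in at least one test.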

| structure | Mtb glucose medium | Mtb cholesterol medium |
|---|---|---|
| `N#Cc1ccc(NC(=O)Cn2ccnc2)cc1` | 50.63% | 14.19% |
| `COc1ncc(C)cc1NC(=O)CC1CCCO1` (stereo not drawn) | - | -4.113% |
| `COC(CO)Cc1ccccc1` (stereo not drawn) | 5.739% | - |
| `CC(C)(C)OC(=O)n1cc(N)cn1` | 8.137% | 7.343% |
| `CN1CCCC(NC(=O)c2ccc(=O)n(C)c2)C1` (stereo not drawn) | 4.12% | - |
| `O=C(NCCCn1cccn1)c1ccccc1O` | 47.96% | - |
| `COc1ccc(OCC(=O)N2CCN(C)CC2)cc1` | - | 1.789% |
| `Cc1ccccc1NC(=O)c1ncccn1` | 0.05112% | - |
| `COCC1CCCN(C(=O)Cc2ccccc2O)C1` (stereo not drawn) | 15.71% | - |
| `CCC(C)C(=O)NCc1cccnc1N1CCOCC1` (stereo not drawn) | - | -8.303% |
| `O=C(CN1CCN(c2ccccn2)CC1)NC1CC1` | - | 2.272% |
| `NCc1nc(-c2cccc(C(F)(F)F)c2)no1` | 65.7% | 73.84% |
| `c1csc(CNC2CC2)n1` | 10.5% | - |
| `Cc1cc(=O)n(CCN(C)CC2(C)COC2)c(=O)[nH]1` | - | -4.368% |
| `CC(=O)N1CC(NC(=O)NCC2CCCC2)C1` | -9.223% | - |
| `O=C1CC(N2CCOCC2)C(=O)N1C1CCCC1` (stereo not drawn) | 8.226% | - |
| `COc1ccc(C(=O)NCCSc2cnn[nH]2)cc1F` | 57.71% | 52.44% |
| `CCC[C@H]1CN(C(=O)CN2CCCC2=O)C[C@@H]1N` | 2.253% | - |
| `CC(Cn1cncn1)NC(=O)Cc1c(F)cccc1Cl` (stereo not drawn) | 2.035% | - |
| `COCCOc1ccc(NC(=O)OCC(F)(F)F)cn1` | 60.73% | 70.46% |
| `Cc1noc(C)c1CN(C)C(=O)NCC(C)N(C)C` (stereo not drawn) | -10.67% | - |
| `CC(C)[C@H](N)C(=O)N1CCC(CCCN(C)C)CC1` | 14.71% | - |
| `CN(C)S(=O)(=O)CCCN1CCCCC1c1nccs1` (stereo not drawn) | 7.646% | - |
| `Cc1ccc(C(N)=O)cc1NCC(C)C` | 51.9% | - |
| `COc1cccc(OC2CNC2)c1` | 57.44% | - |
| `NC(=O)CC1CCN(Cc2ccccc2F)CC1` | - | -3.774% |
| `O=C(NCCSC1CCCC1)c1ccccn1` | 68.62% | 51.02% |
| `COc1ccccc1-c1noc(C(C)N)n1` (stereo not drawn) | 10.14% | 3.508% |
| `CN1CCCCCC1C(=O)NCCc1ccncc1` (stereo not drawn) | 7.898% | - |
| `NCc1ccnc(N)c1` | 17.81% | - |
| `CN(C)c1cc(CN)c2ccccc2n1` | 92.9% | 88.55% |
| `OCc1cnc(-c2ccco2)o1` | -5.097% | - |
| `O=S(=O)(CCN1CCC[C@H]1CO)c1ccccc1` | 51.41% | 34.75% |
| `O=c1c2ccccc2nnn1CN1CCCSCC1` | -2.218% | - |
| `CN(C)CCO[C@@H]1COCC[C@H]1NC1CSCCSC1` | 14.06% | - |
| `NS(=O)(=O)CCc1ccc(F)cc1` | - | -13.97% |
| `COCCNC1(C(=O)NCC2CC2)CCCC1` | 5.742% | - |
| `NCCn1cc(C(=O)N2CCCCCCC2)nn1` | 22.28% | - |
| `Cn1c(=O)c2[nH]c(N3CCNCC3)nc2n(C)c1=O` | - | 10.61% |
| `CN1CCN(c2cc(C3CC(N)C3)nc(N)n2)CC1` (stereo not drawn) | 7.789% | - |
| `c1ccc(C2=NN=C(NC3CC3)SC2)cc1` | 67.67% | 61.78% |
| `CC(N)COCC1CC1` (stereo not drawn) | - | -7.437% |
| `CCC(C)Cn1nc(COC)oc1=O` (stereo not drawn) | 16.98% | -3.773% |
| `NC1CCN(C(=O)Nc2ccccc2)C1` (stereo not drawn) | -7.854% | - |
| `COc1ccc(C)cc1C(=O)NCCCC(=O)N(C)C` | 13.21% | - |
| `CCC(CC)(CN)C(=O)N1CCOC(C)(C)C1` | -14.32% | - |
| `CCC1(O)CCCN(C(=O)Cc2cnccn2)C1` (stereo not drawn) | -3.554% | - |
| `Cc1cnn(CCNCc2cccc3c2OCCO3)c1` | 21.97% | - |
| `CC[C@H](N)C(=O)N(Cc1cccc(F)c1)C1CC1` | - | 17.44% |
| `CC(CNc1ccccc1)NC(=O)c1ccncc1F` (stereo not drawn) | -2.451% | - |
| `COc1ccc(S(=O)(=O)N2CCCNCC2)cc1` | 6.919% | - |
| `COc1ccc(NC(=O)N(C)CCO)c(Br)c1` | 27.84% | - |
| `CCc1nnsc1C(=O)N1CCc2sccc2C1` | 53.36% | - |
| `COc1ccc(NC(=O)C2CCCN2S(C)(=O)=O)cn1` (stereo not drawn) | - | -76.94% |
| `COCCn1cc(CNC(=O)CC2CC2)cn1` | - | 4.073% |
| `Cc1ccc(CNC(=O)NCCO)cc1` | 16.42% | - |
| `CCCS(=O)(=O)N1CCC(C(=O)NCCOC)CC1` | -8.042% | - |
| `COc1cccc2c1OCCC2N` (stereo not drawn) | 5.665% | - |
| `Cc1cccc2c(=O)[nH]cnc12` | - | -5.301% |
| `NC(=O)N1CCCC(C(=O)NCCc2ccsc2)C1` (stereo not drawn) | - | -2.493% |
| `CC1(C)CN(c2ccc3nnnn3n2)C1(C)C` | 1.706% | - |
| `COCc1nc(C(=O)NC2CCN(C)C2=O)cs1` (stereo not drawn) | 4.781% | - |
| `CCCNC(=O)CCNC(=O)c1ccc(O)cc1C` | 11.96% | - |
| `O=C(CSC1=NCCN1)Nc1ccc(Cl)cc1` | 25.59% | - |
| `CCC(OC)C(=O)NCCCn1ccnc1C(C)C` (stereo not drawn) | 17% | - |
| `O=C(NCC1CCN(C2CC2)C1)Nc1nccs1` (stereo not drawn) | 38.62% | - |
| `Nc1cncc(-c2ccc(CN3CCCCC3)cn2)c1` | -1020% | - |
| `Cc1cccc(NCCCNC(=O)C(C)C)n1` | 9.837% | 9.83% |
| `CC(C)CN1CCC(Nc2ccc3nnnn3n2)CC1` | - | -6.087% |
| `CCN(CC)CCSC1CCCCNC1=O` (stereo not drawn) | -11.56% | - |
| `CS(=O)(=O)NCc1nc(CCc2ccccc2)no1` | 44.17% | 25.16% |
| `CN1Cc2cc(-c3csc(N)n3)ccc2NC1=O` | 59.24% | 28.11% |
| `CNS(=O)(=O)c1ccc(C(=O)NC2CCSCC2)cc1` | 2.5% | - |
| `CCN(C1CC1)S(=O)(=O)c1ccc2c(c1)OCCO2` | 62.74% | - |
| `CCC(NC(=O)c1ccc(CO)o1)c1nc(C)c[nH]1` (stereo not drawn) | 2.842% | - |
| `CC(O)CCc1ccc2c(c1)OCO2` (stereo not drawn) | 29.92% | 48.59% |
| `OCC1(O)CCCN(Cc2ccc3ccccc3n2)C1` (stereo not drawn) | -42.59% | - |
| `COc1ccc2c(c1)[C@@H](N)CCO2` | 7.291% | - |
| `CC(C)Oc1ccc(S(=O)(=O)N(C)C(C)CN)cc1` (stereo not drawn) | 78.07% | - |
| `CN(C)[C@@H]1CN(C(=O)C2CC=CC2)C[C@H]1CO` | - | -23.01% |
| `CC(C#N)(NC(=O)CSc1nnc(N)s1)C1CC1` (stereo not drawn) | - | 0.7944% |
| `CCCSCC(=O)NCc1nc(-c2ccncc2)n[nH]1` | - | -3.13% |
| `O=C(CSc1nnnn1Cc1cccs1)NC1CC1` | 67.1% | - |